Measured values reported in patent publication US11638713B2, “Patentiflorin A analogs as antiviral agents” (priority 2019, dated 2023).

Test system: HIV
Format: cell-based
Conditions: ratio CC50 / EC50

Molecule | SI
2″-Acetyl-7-O-β-D-patentiflorin A [Compound 27bc] | 1472.4
COc1cc2c(O)c3c(c(-c4ccc5c(c4)OCO5)c2cc1OC)C(=O)OC3 [Compound 5, diphyllin] | 97.3
COc1cc2c(OCC(=O)OC(C)(C)C)c3c(c(-c4ccc5c(c4)OCO5)c2cc1OC)C(=O)OC3 [Compound 12a] | >19
CCOC(=O)COc1c2c(c(-c3ccc4c(c3)OCO4)c3cc(OC)c(OC)cc13)C(=O)OC2 [Compound 12b] | >129
COc1cc2c(OCC(=O)O)c3c(c(-c4ccc5c(c4)OCO5)c2cc1OC)C(=O)OC3 [Compound 13] | >4.9
COc1cc2c(OCC(N)=O)c3c(c(-c4ccc5c(c4)OCO5)c2cc1OC)C(=O)OC3 [Compound 14a] | 5.3
CNC(=O)COc1c2c(c(-c3ccc4c(c3)OCO4)c3cc(OC)c(OC)cc13)C(=O)OC2 [Compound 14b] | 7.6
COc1cc2c(OCCO)c3c(c(-c4ccc5c(c4)OCO5)c2cc1OC)C(=O)OC3 [Compound 15a] | 27.3
COc1cc2c(OCC(C)(C)O)c3c(c(-c4ccc5c(c4)OCO5)c2cc1OC)C(=O)OC3 [Compound 15b] | 85.7
COc1cc2c(OCC#N)c3c(c(-c4ccc5c(c4)OCO5)c2cc1OC)C(=O)OC3 [Compound 17a] | 627.9
COc1cc2c(OC)c3c(c(-c4ccc5c(c4)OCO5)c2cc1OC)C(=O)OC3 [Compound 17b] | 815.3
C#CCOc1c2c(c(-c3ccc4c(c3)OCO4)c3cc(OC)c(OC)cc13)C(=O)OC2 [Compound 17c] | 186.9
COc1cc2c(Oc3ncccn3)c3c(c(-c4ccc5c(c4)OCO5)c2cc1OC)C(=O)OC3 [Compound 17d] | 38.4
COc1cc2c(OC(=O)C3CCCC3)c3c(c(-c4ccc5c(c4)OCO5)c2cc1OC)C(=O)OC3 [Compound 17f] | 9.2
COc1cc2c(OC(=O)c3ccc(F)cc3)c3c(c(-c4ccc5c(c4)OCO5)c2cc1OC)C(=O)OC3 [Compound 17g] | 16.6
COc1ccc(C(=O)Oc2c3c(c(-c4ccc5c(c4)OCO5)c4cc(OC)c(OC)cc24)C(=O)OC3)cc1 [Compound 17h] | 15.1
COc1cc2c(OS(=O)(=O)C(F)(F)F)c3c(c(-c4ccc5c(c4)OCO5)c2cc1OC)C(=O)OC3 [Compound 18] | 2.8
COc1cc2c(B3OC(C)(C)C(C)(C)O3)c3c(c(-c4ccc5c(c4)OCO5)c2cc1OC)C(=O)OC3 [Compound 19a] | 136.0
COc1cc2c(C)c3c(c(-c4ccc5c(c4)OCO5)c2cc1OC)C(=O)OC3 [Compound 19b] | 12.7
COc1cc2c(-c3ccncc3)c3c(c(-c4ccc5c(c4)OCO5)c2cc1OC)C(=O)OC3 [Compound 19c] | 18.8
COc1cc2cc3c(c(-c4ccc5c(c4)OCO5)c2cc1OC)C(=O)OC3 [Compound 19d] | 237.4
COc1cc2c(Nc3ccc(C(F)(F)F)cc3)c3c(c(-c4ccc5c(c4)OCO5)c2cc1OC)C(=O)OC3 [Compound 19e] | >45
COc1cc2c(Nc3ccccc3)c3c(c(-c4ccc5c(c4)OCO5)c2cc1OC)C(=O)OC3 [Compound 19f] | 4.6
CCc1c2c(c(-c3ccc4c(c3)OCO4)c3cc(OC)c(OC)cc13)C(=O)OC2 [Compound 19g] | 10.2
COc1cc2c(-c3cccs3)c3c(c(-c4ccc5c(c4)OCO5)c2cc1OC)C(=O)OC3 [Compound 19h] | 8.9
COc1cc2c(-c3cccnc3)c3c(c(-c4ccc5c(c4)OCO5)c2cc1OC)C(=O)OC3 [Compound 19i] | 43.7
COc1cc2c(-c3ccco3)c3c(c(-c4ccc5c(c4)OCO5)c2cc1OC)C(=O)OC3 [Compound 19k] | 17.7

Molecule | SI
COc1cc2c(C3=CCN(C(=O)OC(C)(C)C)CC3)c3c(c(-c4ccc5c(c4)OCO5)c2cc1OC)C(=O)OC3 [Compound 19l] | 55.1
COc1cc2c(-c3ccc4c(c3)OCO4)c3c(c(N4CCOCC4)c2cc1OC)COC3=O [Compound 19m] | 16.9
COc1cc2c(C(C)=O)c3c(c(-c4ccc5c(c4)OCO5)c2cc1OC)C(=O)OC3 [Compound 19n] | 26.8
COc1cc2c(C#C[Si](C)(C)C)c3c(c(-c4ccc5c(c4)OCO5)c2cc1OC)C(=O)OC3 [Compound 19o] | 34.2
COc1cc2c(N=C(c3ccccc3)c3ccccc3)c3c(c(-c4ccc5c(c4)OCO5)c2cc1OC)C(=O)OC3 [Compound 19p] | >36
COc1cc2c(-c3ccc4c(c3)OCO4)c3c(c(C(C)O)c2cc1OC)COC3=O (centres unmarked) [Compound 20] | 17.9
C#Cc1c2c(c(-c3ccc4c(c3)OCO4)c3cc(OC)c(OC)cc13)C(=O)OC2 [Compound 21] | 11.7
COc1cc2c(N)c3c(c(-c4ccc5c(c4)OCO5)c2cc1OC)C(=O)OC3 [Compound 22] | 222.2
COc1cc2c(NC(C)=O)c3c(c(-c4ccc5c(c4)OCO5)c2cc1OC)C(=O)OC3 [Compound 24] | >133
COc1cc2c(OC3OC[C@@H](OC(C)=O)[C@H](OC(C)=O)[C@H]3OC(C)=O)c3c(c(-c4ccc5c(c4)OCO5)c2cc1OC)C(=O)OC3 (stereo partly drawn) [Compound 25a, Peracetylated 7β-D-xylosyloxydiphyllin] | 438.6
COc1cc2c(OC3O[C@H](C)[C@@H](O)[C@H](O)[C@H]3O)c3c(c(-c4ccc5c(c4)OCO5)c2cc1OC)C(=O)OC3 (some centres unmarked) [Compound 26b, Patentiflorin A] | 16.4
COc1cc2c(OC3O[C@@H](C)[C@@H](O)[C@@H](O)[C@@H]3O)c3c(c(-c4ccc5c(c4)OCO5)c2cc1OC)C(=O)OC3 (stereo partly drawn) [Compound 26d, 7-O-β-L-fucopyranosyldiphyllin] | > 426.1
COc1cc2c(OC3O[C@H](CO)[C@H](O)[C@H](O)[C@H]3O)c3c(c(-c4ccc5c(c4)OCO5)c2cc1OC)C(=O)OC3 (stereo partly drawn) [Compound 26g, 7-O-β-D-galactopyranosyldiphyllin] | 5.5
COc1cc2c(OC3O[C@H](C)[C@@H](OC(C)=O)[C@H](O)[C@H]3O)c3c(c(-c4ccc5c(c4)OCO5)c2cc1OC)C(=O)OC3 (stereo partly drawn) [Compound 27ba, 4″-Acetyl-7-O-β-D-patentiflorin A] | 137.3
COc1cc2c(OC3O[C@H](C)[C@@H](O)[C@H](OC(C)=O)[C@H]3O)c3c(c(-c4ccc5c(c4)OCO5)c2cc1OC)C(=O)OC3 (stereo partly drawn) [Compound 27bb, 3″-Acetyl-7-O-β-D-patentiflorin A] | 584.1
COc1cc2c(OC3O[C@H](C)[C@@H](OC(C)=O)[C@H](OC(C)=O)[C@H]3O)c3c(c(-c4ccc5c(c4)OCO5)c2cc1OC)C(=O)OC3 (stereo partly drawn) [Compound 27bd, 3″, 4″-Diacetyl-7-O-β-D-patentiflorin A] | 65.9
COc1cc2c(OC3O[C@H](C)[C@@H](OC(C)=O)[C@H](O)[C@H]3OC(C)=O)c3c(c(-c4ccc5c(c4)OCO5)c2cc1OC)C(=O)OC3 (stereo partly drawn) [Compound 27be, 2″,4″-Diacetyl-7-O-β-D-patentiflorin A] | 852
COc1cc2c(OC3O[C@H](C)[C@@H](O)[C@H](OC(C)=O)[C@H]3OC(C)=O)c3c(c(-c4ccc5c(c4)OCO5)c2cc1OC)C(=O)OC3 (stereo partly drawn) [Compound 27bf, 2″,3″-Diacetyl-7-O-β-D-patentiflorin A] | 263.9
C=CCOC(=O)O[C@H]1C(Oc2c3c(c(-c4ccc5c(c4)OCO5)c4cc(OC)c(OC)cc24)C(=O)OC3)OC[C@@H](O)[C@@H]1OC(C)=O (stereo partly drawn) [Compound 28ab2, 2″-O-allyl oxycarbonyl-3″-acetyl-7-O-β-D-xylosyldiphyllin] | 167.7
C=CCOC(=O)O[C@@H]1COC(Oc2c3c(c(-c4ccc5c(c4)OCO5)c4cc(OC)c(OC)cc24)C(=O)OC3)[C@H](OC(=O)OCC=C)[C@H]1OC(C)=O (stereo partly drawn) [Compound 28ab3, 2″,4″-O-diallyl oxycarbonyl-3″-acetyl-7-O-β-D-xylosyldiphyllin] | 16.8
C=CCOC(=O)O[C@H]1[C@H](O)[C@@H](OC(=O)OCC=C)C(Oc2c3c(c(-c4ccc5c(c4)OCO5)c4cc(OC)c(OC)cc24)C(=O)OC3)O[C@@H]1C (stereo partly drawn) [Compound 29b, 2″,4″-O-diallyl oxycarbonyl-7-O-β-D-patentiflorin A] | 40.2
COc1cc2c(OC3O[C@H](C)[C@@H](O)[C@H](OC(=O)c4cc([N+](=O)[O-])cc([N+](=O)[O-])c4)[C@H]3O)c3c(c(-c4ccc5c(c4)OCO5)c2cc1OC)C(=O)OC3 (stereo partly drawn) [Compound 31b, 3″-O-(3,5-dinitrobenzoyl)-7-O-β-D-patentiflorin A] | 51.0
CCCC(=O)O[C@H]1[C@H](O)[C@@H](C)OC(Oc2c3c(c(-c4ccc5c(c4)OCO5)c4cc(OC)c(OC)cc24)C(=O)OC3)[C@@H]1O (stereo partly drawn) [Compound 31c, 3″-O-butyryl-7-O-β-D-patentiflorin A] | 477.0
COc1cc2c(OC3O[C@H](C)[C@@H](O)[C@H](OC(=O)c4ccccc4)[C@H]3O)c3c(c(-c4ccc5c(c4)OCO5)c2cc1OC)C(=O)OC3 (stereo partly drawn) [Compound 31d, 3″-O-benzoyl-7-O-β-D-patentiflorin A] | >74
COc1cc2c(OC3O[C@H](C)[C@@H](O)[C@H](OC(=O)c4ccc(N(C)C)cc4)[C@H]3O)c3c(c(-c4ccc5c(c4)OCO5)c2cc1OC)C(=O)OC3 (stereo partly drawn) [Compound 31e, 3″-O-p-dimethylaminobenzoyl-7-O-β-D-patentiflorin A] | 7.3
COc1cc2c(OC3O[C@H](C)[C@@H](O)[C@H](OC(=O)CC#N)[C@H]3O)c3c(c(-c4ccc5c(c4)OCO5)c2cc1OC)C(=O)OC3 (stereo partly drawn) [Compound 31j, 3″-O-cyanoacetyl-7-O-β-D-patentiflorin A] | 7.3
